Measurements published in the supplement of paper PMC9931576.
Human monoclonal antibodies against the spike receptor-binding domain (heavy:light variable regions). IC50 against pseudoviruses bearing the spike of naturally observed variants; lower = stronger; >10 µg/ml means not reached at the top dose. No active / inactive call. The stated detection limit is 0.0005 µg/ml; values near or below 0.001 µg/ml lie at the floor of the assay.

Legend:
Assay in all cases: pseudovirus neutralization IC50; higher = weaker neutralization
[1] = molecular target: SARS-CoV-2 Omicron BA.1 spike pseudovirus
Experimental: (§1)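 Single-round VSV luciferase pseudovirus mixed with antibody dilutions for 1 h and put on Huh-7 cells for about a day; IC50 from the dose curve.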

[2] = molecular target: SARS-CoV-2 Omicron BA.2 spike pseudovirus
Experimental: as §1

[3] = molecular target: SARS-CoV-2 Omicron BA.2.75 spike pseudovirus
Experimental: as §1

[4] = molecular target: SARS-CoV-2 Omicron BA.5 spike pseudovirus
Experimental: as §1

[5] = molecular target: SARS-CoV-2 Omicron BQ.1.1 spike pseudovirus
Experimental: as §1

[6] = molecular target: SARS-CoV-2 Omicron XBB spike pseudovirus
Experimental: as §1

[7] = molecular target: SARS-CoV-2 early D614G spike pseudovirus
Experimental: as §1

Row | Binder | pseudovirus neutralization IC50 [1] | pseudovirus neutralization IC50 [2] | pseudovirus neutralization IC50 [3] | pseudovirus neutralization IC50 [4] | pseudovirus neutralization IC50 [5] | pseudovirus neutralization IC50 [6] | pseudovirus neutralization IC50 [7]
1 | BD56-1067 (protein) chain 1: QVLLMESGGGVVQPGRSLRLSCVTSGFTFKTYGMHWVRQAPGKGLEWVAVIWYDGSNEYYVDSVKGRFTISRDNSKNTLYLQMNNLRVEDTGMYYCAKNQGQYASGNYYTPDYWGQGTLVTVSS chain 2: DIQLTQSPSSLSASLGDRVTITCQASQDISNHLNWFQQKPGKAPKLLIYDASNLESGVPSRFSGSGSGTHFTFTVTSLRPEDIATYYCQNYDNLPLTFGGGTKVEIK | > 10 µg/mL | > 10 µg/mL | > 10 µg/mL | > 10 µg/mL | > 10 µg/mL | > 10 µg/mL | > 10 µg/mL
2 | BD56-968 (protein) chain 1: QVQLVQSGGGVVQPGRSLRLSCAASGFTFSNYAMHWVRQAPGKGLEWVALISYDGGDQYYADSVKGRFTFSRDNSKNTLSLQINSLKAEDTAVYYCAKNGQGYGSSWYYFDYWGQGTLVTVSS chain 2: DIQMTQSPSSLSASVGDRVTITCQASQDISSYLNWYQQKPGKAPKILIYDASNLEAGVPSRFSGSGSATDFTFTISSLQPEDIATYYCQQYDNFPPTFGQGTKLEIK | 3.31 µg/mL | 4.22 µg/mL | 2.55 µg/mL | 2.91 µg/mL | 5.4 µg/mL | 3.42 µg/mL | 3.46 µg/mL
3 | BD56-973 (protein) chain 1: QVQLVQSGAEVKKPGSSVKVSCKASGGTFSSHTISWVRQAPGQGLEWMGRIIPILAIANYAQTFQGRVTITADKSTSTAYMELSSLRFEDTAVYYCARASGCSSTGCTWYFDLWGRGTLVTVSS chain 2: QSVLTQPPSVSGAPGQRVTISCTGSNSNIGAGYDVHWYQQVPGTAPKLLIYGNSNRPSGVPDRFSGSKSGTSASLAITGLQAEDEADYYCQSYDSGLSDSVFGTGTKVTVL | 0.342 µg/mL | 0.146 µg/mL | 0.318 µg/mL | > 10 µg/mL | > 10 µg/mL | 2.95 µg/mL | 0.521 µg/mL
4 | BD56-969 (protein) chain 1: QVQLVESGGGLVKPGGSLRLSCAASGFTFSDYYMGWVRQAPGKGLEWVSFISHTSGYTDYADSVKGRFTVSRDNAKDSLYLQMNSLRAEDTAVYYCARCGPFMVRGVIHAVEYFHHWGQGTLVTVSS chain 2: EIVLTQSPGTLSLSPGERASLSCRASQTINNNHLAWYQQKPGQAPRLLIFGASSRATGIPDRFDGSGSGTDFTLTISRLEPEDFAVFYCQQYGNSPVTFGGGTKVEIK | 0.399 µg/mL | 0.741 µg/mL | 0.00165 µg/mL | 1.24 µg/mL | 1.72 µg/mL | 3.9 µg/mL | 0.00105 µg/mL
5 | BD56-957 (protein) chain 1: QVQLVESGGGVVQPGRSLRLSCVASGFTFSSYAVHWVRQAPGTGLEWVTVISYDGTNKYYADSVKGRFTITRDNSKNTLYLQMNSLRGEDTAVYYCARDQGSYGSGWSTVFYYAMDVWGQGTTVTVSS chain 2: QSVLTQPPSVSAAPGQKVTISCSGGSSNIGNNYVSWYQQLPGTAPKLLIYDNYKRPSGIPDRFSGSRSGTSATLGITGLQTGDEADYYCGSWDSSLSAWVFGGGTELTVL | 1.06 µg/mL | 0.828 µg/mL | > 10 µg/mL | > 10 µg/mL | > 10 µg/mL | > 10 µg/mL | > 10 µg/mL
6 | BD56-970 (protein) chain 1: EVQLVESGGGLIRPGGSLRLSCASSGFIVSRNYMSWVRQAPGKGLEWVSVIFSGGTTYYADSVKGRFTISRDNSKNTLYLQMNSLRAADTAVYYCARGGSGSPHQAEFDYWGQGTLVSVSS chain 2: DIQMTQSPSSLSASVGDRVTITCRASQDISNCLAWFQQKPGKAPKSLIYAASSLQSGVPSKFSGNGYGTDFTLTISNLQPEDSATYYCQQCDSYPITFGQGTRLEIK | 0.00383 µg/mL | 0.00115 µg/mL | 0.00334 µg/mL | 0.000714 µg/mL | 0.0882 µg/mL | 1.24 µg/mL | 0.00862 µg/mL
7 | BD56-960 (protein) chain 1: EVQLVESGGGLVKPGGSLRLSCAASGFTFNTYSMNWVRQAPGKGLEWVSSISGSSSNTYYADSVKGRFTISRDIAKSSLYLQMNSLRAEDTAVYYCVIEPSEWLRLRTGGSDPWGQGTLVTVSS chain 2: DIQMTQSPSSLPASVGDRVTITCRASQTISYFLNWYQQKPGKAPKLLIYASSSLQSGVPSRFSGSGSGTDFTLTINSLQPEDSATYYCQQSYSTSWTFGQGTKVEIK | 0.0214 µg/mL | 0.391 µg/mL | 0.0245 µg/mL | > 10 µg/mL | > 10 µg/mL | > 10 µg/mL | 0.00237 µg/mL
8 | BD56-956 (protein) chain 1: QVQLVESGGGVVQPGRSLTLSCSASGFIFTNYAMHWVRQAPGKGLEWVAVVSYNGLNQYYVDSVEGRFTVSRDNSRNTLSLQMNSLRPEDTAVYYCAKAAGTGWYDVFQYGMDVWGHGTTVAVSS chain 2: QSVLTQPPSVSGAPGQRVTISCTGRSSNFGSGYDVHWYQQLPGTAPKLLIYGNNNRPSGVPDRFSGSKSGTSASLAITGLAAEDEADYYCQSYDSTLSTWVFGGGTKLTVL | 0.488 µg/mL | 0.534 µg/mL | 0.474 µg/mL | 0.613 µg/mL | 1.56 µg/mL | 1.3 µg/mL | 0.194 µg/mL
9 | BD56-964 (protein) chain 1: EVQLVESGGGLVQPGRSLRLSCVASGFTFDDFALHWVRQAPGKGLEWVSGVSWNSGTIGYADSVKGRFIVSRDNAKNSLYLRMNSLRPEDTALYYCARDVVPSTRPGSDPYAFDIWGQGTMVTVSS chain 2: QSALTQPASVSGSPGQSITISCTGTSSDVGDYNYVSWYQQFPGKAPKLMIYDVSKRPSGVSNRFSGSKSGTTASLTISGLQVEDDTFFYCSSYTSSSTVLFGGGTKLTVL | 0.17 µg/mL | 0.191 µg/mL | 0.398 µg/mL | 0.479 µg/mL | > 10 µg/mL | > 10 µg/mL | 0.0143 µg/mL
10 | BD56-952 (protein) chain 1: EVQLVQSGVEVKKPGESLRISCKGSGYRFTSYWITWVRHMPGKGLEWMGRIDPSDSYTNYSPSFQGHVTISTDKSLTTAYLQWSSLKASDTAMYYCARHPDGSGSYFNYYFDYWGQGTLVTVSS chain 2: QSVLTQPPSVSGAPGQRVTISCTGSSSNIGAGYYVHWYQQLPGTAPKLLIYGNNNRPSGVPDRFSGSKSGTSASLAITGLRAEDEADYYCQSCDSSLSGVFGTGTKVTVL | 6.65 µg/mL | 7.29 µg/mL | 4.13 µg/mL | 2.46 µg/mL | > 10 µg/mL | > 10 µg/mL | > 10 µg/mL
11 | BD56-961 (protein) chain 1: QLQLHESGPGLVKPSETLSLTCTVPDGSMYSSSYYWGWIRQPPGRGLEWIGTIYFTGSTYYNPSLKSRVTISVDTSRNHFSLRLSSVTAADTAFYYCARGAHYYDSRHPVGAFDIWGQGRLVTVSS chain 2: QSALTQPASVSGSPGQSITISCTGTSSDIGGDNYVSWYQQHPGKAPKLIIYDVNKRPSGVSNRFSGSKSDNTASLTISGLQAEDEADYSCTSYTSSSTYVFGTGTKVTVL | 0.00149 µg/mL | 0.000937 µg/mL | 0.00125 µg/mL | 3.24 µg/mL | 3.13 µg/mL | 3.85 µg/mL | 0.00102 µg/mL
12 | CV07-283 (protein) chain 1: QVQLVQSGAEVKKPGASAKVSCKASGYTFTGYYIHWVRQAPGQGLEWMGLINPISGGTNYAQKFQDRVTMTRDTSISTAYMELSRLRSDDTAVYYCVRGPFYYDSSGPLGGMDVWGQGTTVTVSS chain 2: QSALTQPASVSGSPGQSITISCTGTSGDVGGYNYVSWYQQHPGKAPKLMIYEVSNRPSGVSNRFSGSKSGNTASLTISGLQAEDEADYYCSSYTSSSTYVFGTGTKVTVL | > 10 µg/mL | > 10 µg/mL | > 10 µg/mL | > 10 µg/mL | > 10 µg/mL | > 10 µg/mL | 0.0121 µg/mL
